Results of unrelated studies side by side (data: NIAID ChemDB).

Shared fields: toxicity to cultured cells; cells: HFF; measure: CC50

Neighbouring rows are from separate reports.

smiles,method,value
CCCCCCSc1nc(N)nc2c1ncn2/C=C1/C[C@@H]1CO,neutral red,>300 µM
CC(=O)O[C@H]1[C@H](n2c(Br)nc3cc(Cl)c(Cl)cc32)OC[C@H]1OC(C)=O,,59 µM
OCC(CO)OCn1c(Br)nc2c(Cl)c(Cl)ccc21,visual reading,>100 µM
CCC(CO)n1cc(C(=O)O)c(=O)c2cc(N)c(N3CCN(c4ccccn4)CC3)cc21,MTT,128 µM
COC(=O)[C@H](C)NP(=O)(OC[C@H]1C/C1=C/n1cnc2c(OC)nc(N)nc21)Oc1ccccc1,neutral red,34 µM
Nc1nc2c(ncn2COCCO)c(=O)[nH]1,visual reading,14 µM
OC[C@H]1O[C@@H](n2c(=S)[nH]c3cc(Cl)c(Cl)cc32)C[C@@H]1O,visual reading,>100 µM
Nc1ncnc2c1ncn2/C=C1/C[C@@H]1CO,neutral red,180 µM
Clc1cc2nc(Cl)c(CSCc3ccccc3)n2cc1Cl,visual reading,100 µM
CC(=O)N1CCN(c2ccc(Oc3ccc(Cl)cc3O)cc2)CC1,,>10 µM
CCCCCSc1nc(N)nc2c1ncn2/C=C1/C[C@@H]1CO,,>313 µM
Cc1ccc(CNC(=O)[C@H](CCc2ccccc2)NC(=O)[C@H](CCc2ccccc2)NC(=O)[C@@H](N)Cc2ccncc2)cc1,resazurin,68 µM
Nc1ncnc2c1ncn2[C@H]1C[C@]12C[C@H]2CO,,100 µM
O[C@@H]1[C@H](O)CO[C@H]1n1c(Br)nc2cc(Cl)c(Cl)cc21,,32 µM
Nc1nc(OCC2CC2)c2ncn(/C=C3/C[C@@H]3CO)c2n1,,>348 µM
OC[C@H]1O[C@@H](n2c(Cl)nc3cc(Cl)c(Cl)cc32)[C@H](O)[C@@H]1O,,238 µM
OC[C@H]1O[C@@H](c2c(SCc3ccccc3)[nH]c3cc(Cl)c(Cl)cc23)[C@H](O)[C@@H]1O,,32 µM
Nc1nc(=O)n([C@@H]2O[C@H](CO)[C@@H](O)[C@@H]2F)cc1I,visual reading,7.6 µM
OC[C@H]1O[C@@H](n2c(Br)nc3cc(Cl)c(Cl)cc32)[C@H](O)[C@@H]1O,,118 µM
Cc1ccc(CNC(=O)[C@@H](NC(=O)[C@H](CCc2ccccc2)NC(=O)C(NC(=O)c2cnc(C)cn2)C(C)(C)C)C(C)C)cc1,resazurin,2.9 µM
OCC(O)COCc1c(Cl)nc2cc(Cl)c(Cl)cn12,visual reading,>100 µM
O=c1[nH]c(=O)n(COCCO)nc1Cc1ccc(O)cc1,,>100 µM
CNc1nc2cc(Cl)c(Cl)cc2n1[C@@H]1O[C@@H](CO)[C@H](O)[C@H]1O,visual reading,>100 µM
CC(C)CSc1nc(N)nc2c1ncn2/C=C1/C[C@@H]1CO,neutral red,>300 µM
[N-]=[N+]=NC(CBr)c1cn(CCC(CO)CO)c(=O)[nH]c1=O,,>270 µM
O[C@@H]1[C@H](O)[C@H](O)CO[C@H]1n1c(Br)nc2cc(Cl)c(Cl)cc21,,179 µM
CCCSc1nc(N)nc2c1ncn2/C=C1/C[C@@H]1CO,,>343 µM
Cc1ccc(CNC(=O)[C@@H](NC(=O)[C@H](CCc2ccccc2)NC(=O)[C@H](CCc2ccccc2)N(C)C)C(C)C)cc1,resazurin,14 µM
O=c1[nH]c(=O)n([C@H]2C[C@H](O)[C@@H](CO)O2)cc1C(O)C(Cl)Cl,,>294 µM
CNC(=O)c1ccc(Oc2ccc(Cl)cc2O)o1,,>10 µM
CC(C)Sc1nc(N)nc2c1ncn2/C=C1/C[C@@H]1CO,neutral red,>300 µM
OCC(CO)OCn1c(SCc2ccccc2)nc2cc(Cl)c(Cl)cc21,visual reading,>100 µM
CC(=O)OCC(CO)OCn1cnc2c(=O)[nH]c(N)nc21,,>100 µg/mL
OCCOCn1c(Br)nc2cc(Cl)c(Cl)cc21,visual reading,>100 µM
COC(=O)[C@H](C)NP(=O)(OCC1C/C1=C/n1cnc2c(NC3CC3)nc(N)nc21)Oc1ccccc1,neutral red,126 µM
OCC1OC(n2c(Cl)cc3cc(Cl)c(Cl)cc32)C(O)C1O,visual reading,>100 µM
OC[C@H]1O[C@@H](n2c(Br)nc3cc(Cl)c(Cl)cc32)C[C@@H]1O,visual reading,50 µM
OCCOCn1c(Cl)nc2cc(Cl)c(Cl)cc21,visual reading,>320 µM
Nc1nc(F)c2ncn(/C=C3\CC3(CO)CO)c2n1,neutral red,>377 µM
O=c1[nH]c(=O)n([C@H]2C[C@H](O)[C@@H](CO)O2)cc1/C=C/Br,visual reading,20 µM
CCCSc1nc(N)nc2c1ncn2/C=C1/C[C@@H]1CO,,>343 µM
CCOCn1cc(C(N)=S)c2c(N)ncnc21,visual reading,32 µM
Nc1nc2c(ncn2COCCO)c(=O)[nH]1,,>405 µM
CN(C)c1cc2c(=O)c(C(=O)O)cn(C)c2cc1N1CCN(c2ccccn2)CC1,MTT,350 µM
Nc1ncnc2c1c(I)cn2COCCO,,100 µM
Cn1cc(C(=O)Nc2ccc(Cl)cc2O)c(C(F)(F)F)n1,,>10 µM
Nc1ncnc2c1ncn2/C=C1\[C@H](CO)C1(F)F,,>100 µM
O=c1[nH]c(=O)n([C@H]2C[C@H](O)[C@@H](CO)O2)cc1C(O)C(Br)I,,>210 µM
OC[C@H]1O[C@@H](c2c(Cl)[nH]c3cc(Cl)c(Cl)cc23)[C@H](O)[C@@H]1O,,>100 µM
CCCCCSc1nc(N)nc2c1ncn2/C=C1/C[C@@H]1CO,,>313 µM
CN1CCN(n2cc(C(=O)NCc3ccc(Cl)cc3)c(=O)c3cc(CN4CCOCC4)ccc32)CC1,,44.8 µM
O=C(O)c1ccc(Oc2ccc(Cl)cc2O)s1,,>10 µM
Cc1ccc(CNC(=O)[C@H](CC(C)C)NC(=O)[C@H](CCc2ccccc2)NC(=O)c2cnc(C)cn2)cc1,resazurin,35 µM
CCCCSc1nc(N)nc2c1ncn2/C=C1/C[C@@H]1CO,neutral red,>300 µM
Nc1cc2c(=O)c(C(=O)O)cn(C3CC3)c2cc1N1CCN(c2cnccn2)CC1,MTT,100.3 µM
OC[C@H]1O[C@@H](c2cc(Cl)nc3cc(Cl)c(Cl)cc23)C(O)C1O,,32 µM
Nc1nc(NC2CC2)c2ncn(C=C3CC3CO)c2n1,,327 µM
COc1nc(N)nc2c1ncn2/C=C1/C[C@@H]1CO,,>404 µM
COc1ccc(Cc2nn(COCCO)c(=O)[nH]c2=O)cc1,,>100 µM
COC(=O)C(Cc1c[nH]c2ccccc12)NP(=O)(O)OCC1C/C1=C/n1cnc2c(N)ncnc21,,111 µM
OC[C@@H]1O[C@@H](n2c(Br)nc3cc(Cl)c(Cl)cc32)[C@H](O)[C@H]1O,visual reading,>100 µM
Cc1ccc(Cc2nn(COCCO)c(=O)[nH]c2=O)cc1,,>100 µM
COC(c1cn([C@H]2C[C@H](O)[C@@H](CO)O2)c(=O)[nH]c1=O)C(Cl)Br,,>250 µM
CCCC(=O)OCC(COC(=O)CCC)OCn1cnc2c(=O)[nH]c(N)nc21,,>100 µg/mL
OC[C@H]1O[C@@H](n2c(Br)nc3cc(Cl)c(Cl)cc32)[C@H](O)[C@@H]1O,,184 µM
Nc1ncnc2ncn(/C=C3/C(F)C3(CO)CO)c12,,>100 µM
O=c1[nH]c(=O)n([C@H]2C[C@H](O)[C@@H](CO)O2)cc1C(O)C(Br)Br,,>232 µM
Cc1nc2c3c(cn([C@@H]4O[C@H](CO)[C@@H](O)[C@H]4O)c3n1)C(N)=NN2C,visual reading,>100 µM
CNc1nc2c(Cl)c(Cl)ccc2n1COC(CO)CO,visual reading,>100 µM
COC(c1cn([C@H]2C[C@H](O)[C@@H](CO)O2)c(=O)[nH]c1=O)C(Br)I,,>204 µM
Nc1nc(OCC2CC2)c2ncn(/C=C3/C[C@@H]3CO)c2n1,,>348 µM
COc1ccccc1N1CCN(c2cc3c(cc2N)c(=O)c(C(=O)O)cn3C2CC2)CC1,MTT,300.8 µM
CC(C)Nc1nc2cc(Cl)c(Cl)cc2n1[C@H]1C[C@H](O)[C@@H](CO)O1,visual reading,>100 µM
Nc1cc2c(=O)c(C(=O)O)cn(N)c2cc1N1CCN(c2ccccn2)CC1,MTT,127.5 µM
OCCSCc1c(Cl)nc2ccc(Cl)cn12,visual reading,>100 µM
Nc1nc(NC2CC2)c2ncn(C=C3CC3CO)c2n1,neutral red,327 µM
OCCOCn1c(=S)[nH]c2c(Cl)cc(Cl)cc21,visual reading,>100 µM
O=c1[nH]c(=O)n(COC(CO)CO)nc1Cc1ccc(Cl)cc1,,>100 µM
C#CCNc1nc(N)nc2c1ncn2/C=C1/C[C@@H]1CO,,>370 µM
OC[C@H]1O[C@@H](n2c(SCc3ccccc3)nc3cc(Cl)c(Cl)cc32)C[C@@H]1O,visual reading,>100 µM
Clc1cc2nc(Cl)c(COCc3ccccc3)n2cc1Cl,visual reading,100 µM
O=C(NCc1ccc(Cl)cc1)c1cn2c(CCN3CCOCC3)cc3cc(CN4CCOCC4)cc(c1=O)c32,neutral red,13 µM
COC(=O)[C@H](C)NP(=O)(OCC1C/C1=C/n1cnc2c(=O)[nH]c(N)nc21)Oc1ccccc1,,>100 µM
O=C(NCc1ccc(Cl)cc1)c1cn2c3c(cc(CN4CCOCC4)cc3c1=O)OC(c1cccnc1)C2,neutral red,>19 µM
COc1ccc(Cc2nn(COC(CO)CO)c(=O)[nH]c2=O)cc1,,>100 µM
CN1N=C(N)c2cn([C@@H]3O[C@H](COP(=O)(O)O)[C@@H](O)[C@H]3O)c3ncnc1c23,visual reading,19 µM
Nc1ccn(C[C@@H](CO)OCP(=O)(O)O)c(=O)n1,,>10 µg/mL
CCO[C@@H]1[C@@H](OCC)[C@H](Cc2ccccc2)O[C@@H]2CO[C@@H](c3ccc(Cl)cc3)O[C@@H]12,,71 µg/mL
Nc1nc2c(ncn2C=C2CC2CO)c(=O)[nH]1,,279 µM
CN1N=C(N)c2cn([C@@H]3O[C@H](CO)[C@@H](O)[C@H]3O)c3nc(N)nc1c23,visual reading,>100 µM

Repeating the first 5 entries:

smiles	method	value
CCCCCCSc1nc(N)nc2c1ncn2/C=C1/C[C@@H]1CO	neutral red	>300 µM
CC(=O)O[C@H]1[C@H](n2c(Br)nc3cc(Cl)c(Cl)cc32)OC[C@H]1OC(C)=O		59 µM
OCC(CO)OCn1c(Br)nc2c(Cl)c(Cl)ccc21	visual reading	>100 µM
CCC(CO)n1cc(C(=O)O)c(=O)c2cc(N)c(N3CCN(c4ccccn4)CC3)cc21	MTT	128 µM
COC(=O)[C@H](C)NP(=O)(OC[C@H]1C/C1=C/n1cnc2c(OC)nc(N)nc21)Oc1ccccc1	neutral red	34 µM

CCn: concentration that lowers growth or viability of the cells by n%. An empty or dashed field is not shown.